# Measured data: PubChem BioAssay AID1259414 (Drosophila RNAi Screening Center, 2018)
# Aim: 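Fly genes that alter Wolbachia amount inside host cells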 (primary screen)
# System: Drosophila JW18 cells infected with Wolbachia
# Reagents: long dsRNA against Drosophila genes, 0.25 µg dsRNA per well of a 384-well plate
# Timing: 5 days
# Treatment: cells persistently infected with Wolbachia before knock-down; no added drug
# Read-out: 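Automated imaging of bacterial rRNA staining divided by host cell count, reported as plate-normalised robust z-score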
# Reading the numbers: Wolbachia per cell robust z: higher = more Wolbachia per host cell than the plate typical
# Active means: 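Hit when robust z is 1.5 or more, or -1.5 or less, in at least two of three replicates; excludes dsRNAs with several or no targets, genes not expressed in JW18 and well A1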
# The screen tested about 24,000 reagents; shown is an unselected part of those that have a named target and a result. In the full data, about 1,210 (5%) were called active. 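Inactive calls also include excluded dsRNAs with several or no targets, genes unexpressed in JW18, and well A1, regardless of score.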 Entries without a mark were called inactive. The numbers tell different reagents against one gene apart. Names joined by + are all predicted targets of the reagent.
"Wolbachia per cell robust z, rep 1","Wolbachia per cell robust z, rep 2","Wolbachia per cell robust z, rep 3",Target gene,dsRNA no.
1.3,0.19,-0.0575,CG31463,1
-2.59,-1.75,0.0325,CG31463,2
0.716,1.47,2.14,DMAP1,1
0.663,0.0767,0.784,DMAP1,2
-0.527,1.35,0.889,CG13449,1
0.781,-1.16,0.26,CG10139,1
-2.23,-1.43,0.122,CG34236,1
-1.33,-0.0638,-2.57,twr,1
2.31 (active),2.37,1.35,Fit1,1
1.81,0.775,0.113,Fit1,2
0.566 (active),2.13,1.95,RpS25,1
2.29 (active),1.77,2.79,RpS25,2
-2.35,0.221,-1.63,CG32801,1
-0.403,-0.784,-0.532,CG32801,2
-4.41,-0.952,-1.48,CG15337,1
-1.52,-3.53,-3.31,CG15337,2
0.922,0.0193,1.07,vers,1
1.13,0.411,1.15,CG43376,1
-3.43,0.712,1.62,CG9806,1
1.03,0.403,-0.184,CG9806,2
0.0551,-0.569,-0.269,CG4210,1
-5.24 (active),-1.91,-0.651,CG4210,2
0.398,2.92,2.97,CG33136,1
-1.3,0.413,-0.419,CG33136,2
-2.12 (active),-2.64,0.518,Hem,1
1.05,1.2,-0.386,CG8929,1
0.471,1.03,1.03,CG8929,2
-0.768,0.606,0.852,CG9215,1
0.515,0.0204,-1.42,CG14246,1
-0.228,-1.12,-0.31,CG14246,2
-6.09 (active),-0.617,-2.75,Smu1,1
-0.922,0.0303,3.04,retinin,1
-0.262,-1.25,0.696,retinin,2
-0.365,-0.377,-0.589,Ir67a,1
1.21,-2.87,-0.393,CG9458,1
0.289,-0.345,0.74,lqfR,1
0.0304,0.202,-0.345,lqfR,2
-0.45,0.896,-0.551,lqfR,3
-4.16,-2.1,-4.74,Shawl,1
-1.13,0.33,-1.82,Shawl,2
2.68,3.7,0.0466,Shawl,3
-0.797,-4.4,-7.97,DIP-kappa,1
1.3,0.122,-0.192,DIP-kappa,2
-3.27,0.416,0.00294,CG2444,1
-2.46 (active),0.285,-3.49,Chpf,1
0.298,-9.1,0.151,Chpf,2
-1.74,0.159,-0.456,CG2652,1
0.61,1.07,1.3,CG2652,2
1.64,0.801,0.602,CG2652,3
-1.5,-0.196,0.284,Npc2c,1
0.504,-2.05,-0.568,Npc2c,2
0.732,1.11,0.784,CG13492,1
-1.45,0.621,0.283,CG42299 + CG42300,1
-0.0112,0.93,-0.958,CG12768,1
0.874,0.494,1.54,CG12768,2
-1.36,0.104,0.00877,sqa,1
-0.957,-1.04,-1.44,sqa,2
0.604,0.791,1.33,CG40439,1
0.527,-0.886,1.37,CG40439,2
0.133,0.566,-1.93,CG13488,1
-0.764,-4.37,0.136,CG33669 + CG33664 + CG33666 + 3 more,1
-1.56,-0.119,-0.266,Ebp,1
-0.736,0.592,-0.469,Ebp,2
0.452,0.551,0.326,cm,1
0.421,-0.634,0.387,CG32756,1
-1.51 (active),-0.496,-1.53,CG32756,2
-1.24,-0.379,0.764,CG31760,1
0.387,1.42,-0.534,CG31760,2

Called active, of those listed so far:
"Wolbachia per cell robust z, rep 1","Wolbachia per cell robust z, rep 2","Wolbachia per cell robust z, rep 3",Target gene,dsRNA no.
2.31 (active),2.37,1.35,Fit1,1
0.566 (active),2.13,1.95,RpS25,1
2.29 (active),1.77,2.79,RpS25,2
-5.24 (active),-1.91,-0.651,CG4210,2
-2.12 (active),-2.64,0.518,Hem,1
-6.09 (active),-0.617,-2.75,Smu1,1
-2.46 (active),0.285,-3.49,Chpf,1
-1.51 (active),-0.496,-1.53,CG32756,2
